# Results deposited as PubChem BioAssay AID504761 (Drosophila RNAi Screening Center, 2011).
# Test: 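Genome-wide fly cell screen for genes dengue virus requires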 (primary screen)
# Cells: D.Mel-2 cells from Drosophila
# Reagent: long dsRNA against Drosophila genes
# Conditions: infection with dengue virus type 2; dose and infection time not stated
# Read-out: 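Cells stained for dengue envelope protein and imaged; percent of infected cells per well on duplicate plates, ranked by infection, with stained nuclei counted for cell number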
# Direction: infection score: higher = more virus-infected cells; cell count: higher = more cells in the well
# Hit rule: 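Very low infection ranking in both replicate wells (chance probability at most 0.065), then a retest showing infection dropped 1.5-fold or more at p below 0.05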
# Calls: active = confirmed: knock-down lowers infection; inactive = not picked or not confirmed
# The screen tested about 22,000 reagents; below is a random part of those that have a named target and a result. Of all reagents, 116 (0.52%) got an active call. 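Calls depend on retest data that are not deposited; infection was ranked per plate without normalising between plates; the unit of the infection score is not given.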 Raw values are not corrected between plates. Entries without a mark were called inactive. A plus sign joins genes that one reagent is predicted to hit. Further read-outs or replicates are left out here. Not stated in the record: the amount of reagent, the time to read-out.
The opening 2 entries, to show the layout:
gene,DRSC id,"infection score, replicate 1","infection score, replicate 2","cell count, replicate 1"
kst,DRSC08719,10.4,10.7,5743
CG15432,DRSC00447,15.1,11,6153

The listing, from the first entry:
gene,DRSC id,"infection score, replicate 1","infection score, replicate 2","cell count, replicate 1"
kst,DRSC08719,10.4,10.7,5743
CG15432,DRSC00447,15.1,11,6153
CG15432,DRSC23618,2.18,2.69,6366
EMC4,DRSC11638,7.52,8.26,6438
EMC4,DRSC29652,22.3,1.35,5483
CG18746,DRSC15383,10.5,2.9,5597
CG2336,DRSC12581,7.44,13,7122
l(1)G0469,DRSC19412,10.1,5.57,6276
l(1)G0469,DRSC19462,,19.7,368
Echs1,DRSC06999,9.27,6.69,5769
cDIP,DRSC14267,4.01,4.32,6003
Ino80,DRSC14760,3.91,9.14,6654
Ino80,DRSC15333,1.42,1.69,6281
Ino80,DRSC15501,3.66,3.77,6612
GstE5,DRSC06675,1.15,0.53,6423
CG10914,DRSC06010,3.12,17.6,6800
Elp4,DRSC25002,4.09,1.91,6667
Sptr,DRSC18719,0.65,0.19,6456
Vps39,DRSC16205,7.04,3.16,5897
Vps53,DRSC00595,7.88,33.8,6634
bdg,DRSC07136,,40.2,519
Coq9,DRSC22913,1.34,1.59,6866
CG4975 + CG4984,DRSC24817,8.04,2.54,6380
